In experiment [1] the test system is P. falciparum asexual parasites, chloroquine-sensitive D10 strain. As to the kind of experiment: Drug susceptibility assay (pLDH), asexual parasites, D10 strain. The conditions noted are these: read-out: Mean IC50 ± SD, D10, CQ-sensitive D10 strain, 72 h.
Experiment [2] has as its system P. falciparum asexual parasites, chloroquine-resistant W2 strain. As to the kind of experiment: Drug susceptibility assay (pLDH), asexual parasites, W2 strain. The settings on record: read-out: Mean IC50 ± SD, W2, CQ-resistant W2 strain, 72 h.

This note sets out measurements from PMC8765435, “In Vitro Antimalarial Activity of Inhibitors of the Human GTPase Rac1” (Antimicrobial Agents and Chemotherapy, 2022).

On to `O=C(Nc1ccc(S(=O)(=O)N2CCCCC2)cc1)c1cc(-c2ccccc2O)n[nH]1`, for which the IC50 in experiment [1] worked out at 7.14 µM; in experiment [2], 25.4 µM.

A word on the IC50: it is the concentration at which inhibition is half-maximal.
